Results of unrelated studies side by side (data: NIAID ChemDB).

Common to all: growth or infection tests; organism: Mycobacterium tuberculosis

MIC bound: limit read from a one-dose screen. Inhibition is in % at the dose shown (toxicity tests: loss of growth or viability). MIC50, MIC90 and the like: level of inhibition, or share of isolates inhibited. Blank or dashed fields: not listed here. Neighbouring rows are from separate reports. a–b is a range or a potency band.

SMILES	method	strain	setting	cell line	dose	measure	result
COc1cc(/C=C2\CC/C(=C\c3ccc(OCCCCN4CCC(C)CC4)c(OC)c3)C2=O)ccc1OCCCCN1CCC(C)CC1	visual reading	H37Rv	-	-	-	MIC99	12.5 µM
CN(CC#CC#CC(C)(C)C)c1cccc2c1CCC(=O)N2	-	H37Rv	-	-	-	MIC	>6.25 µg/mL
COc1ccccc1CCNCCNCCc1ccccc1Cl	-	-	-	-	-	MIC	50 µM
CC1=N/C(=C\c2ccco2)C(=O)O1	BACTEC	H37Rv	-	-	12.5 µg/mL	inhibition	-19%
Cc1c(S(=O)(=O)c2ccccc2)[n+](=O)c2ccc(Cl)cc2n1[O-]	-	H37Rv	-	-	-	MIC	6.25 µg/mL
CCCCCCCCCCCCNC(CC(=O)OCC)c1ccccc1[N+](=O)[O-]	-	Sensitive strains	-	-	-	MIC	25 µg/mL
C/C(=C\CC/C(C)=C/COC1CCCCO1)CO	resazurin	H37Rv	-	-	6.25 µg/mL	inhibition	4%
CCCCCCCCCCCCNC(CC(=O)OCC)c1cccc(Cl)c1	-	Sensitive strains	-	-	-	MIC	25 µg/mL
CC(=O)OC/C=C(\C)CC/C=C(\C)CC/C=C(\C)CCC=C(C)C	resazurin	H37Rv	-	-	-	MIC	3.13 µg/mL
O=C(Oc1ccc(Cl)cc1C(=O)Nc1ccc(C(F)(F)F)cc1)c1cnccn1	-	multidrug resistant 53/2009	21 d	-	-	MIC	0.25 µM
O=C1NC(=O)C2C3OC(C(Cl)C3Cl)C12	BACTEC	H37Rv	-	-	-	MIC bound	>12.5 µg/mL
NNC(=O)c1ccncc1	resazurin	H37Rv	-	-	-	MIC	0.05 µg/mL
O=C(CSc1nnc(-c2cccc(NC(=S)NCCO)c2)o1)c1ccccc1	resazurin	H37Rv	-	-	6.25 µg/mL	inhibition	69%
CN[C@@H]1[C@H](O[C@H]2[C@H](O[C@H]3[C@H](O)[C@@H](O)[C@H](N=C(N)N)[C@@H](O)[C@@H]3N=C(N)N)O[C@@H](C)[C@]2(O)C=O)O[C@@H](CO)[C@H](O)[C@H]1O	resazurin	H37Rv	-	-	-	MIC	250 µg/mL
COc1cc(CNC2CC2)ccc1O	-	Sensitive strains	-	-	-	MIC	12.5 µg/mL
COc1ccc(CNCCNC(c2ccccc2)c2ccccc2)c(OC)c1	-	-	-	-	-	MIC	50 µM
CC(C)=CCc1c(O)ccc2oc3cc4c(c(O)c3c(=O)c12)C=CC(C)(C)O4	-	H37Ra	-	-	-	MIC	12.5 µg/mL
Cn1c(=O)ccn(-c2ccc([N+](=O)[O-])cc2[N+](=O)[O-])c1=O	-	-	-	-	6.25 µg/mL	inhibition	<90%
CCCCCCCCNC(CC(=O)OCC)c1ccc([N+](=O)[O-])cc1	-	H37Ra	-	-	-	MIC	<25 µg/mL
CC1CCN(CCCCOc2ccc(/C=C3\CC/C(=C\c4ccc(OCCCCN5CCC(C)CC5)cc4)C3=O)cc2)CC1	visual reading	H37Rv	-	-	-	MIC99	3.12–6.25 µM
O=C(Oc1ccc(Cl)cc1C(=O)Nc1ccc(Cl)c(Cl)c1)c1cnccn1	-	multidrug resistant 7357/1998	21 d	-	-	MIC	0.25 µM
COc1cc(C(C#N)=Cc2ccccn2)c([N+](=O)[O-])cc1OC	resazurin	H37Rv	-	-	6.25 µg/mL	inhibition	71%
CCOC(=O)C1=C(C)NC(C)=C(C(=O)OCC)C1c1cn(-c2ccccc2)nc1-c1ccc(Cl)cc1	resazurin	H37Rv	-	-	6.25 µg/mL	inhibition	70%
O=c1[nH]c(=O)n(CCCO)cc1[N+](=O)[O-]	-	-	-	-	6.25 µg/mL	inhibition	<90%
CC(C)c1ccc2c(c1)CC[C@H]1[C@](C)(CNCCN[C@@H](C)C3CCCCC3)CCC[C@]21C	-	-	-	-	-	MIC	25 µM
COc1c(O)cc2oc3cc4c(c(O)c3c(=O)c2c1CC=C(C)C)CC(C(C)(C)O)O4	-	H37Ra	-	-	-	MIC	25 µg/mL
Cc1ccc2c(c1)n([O-])c(CBr)c(Sc1ccccc1)[n+]2=O	-	H37Rv	-	-	-	MIC	>6.25 µg/mL
O=c1[nH]c(=O)n(-c2ccc([N+](=O)[O-])cc2[N+](=O)[O-])cc1Br	-	-	-	-	6.25 µg/mL	inhibition	<90%
COC(=O)C1=C(C)NC(C)=C(C(=O)OC)C1c1cn(-c2ccccc2)nc1-c1ccc(C)cc1	resazurin	H37Rv	-	-	6.25 µg/mL	inhibition	71%
O=C(NCCCl)N1CCC(CN=c2cc3n(-c4ccc(Cl)cc4)c4ccccc4nc-3cc2Nc2ccc(Cl)cc2)CC1	BACTEC	H37Rv	-	-	-	MIC	0.1 µg/mL
CCOC(=O)C1=C(C)NC(C)=C(C(=O)OCC)C1c1cn(-c2ccccc2)nc1-c1ccc([N+](=O)[O-])cc1	resazurin	H37Rv	-	VERO	-	MIC	3.13 µg/mL
CO[C@H]1/C=C/O[C@@]2(C)Oc3c(C)c(O)c4c(O)c(c(/C=N/N5CCN(C)CC5)c(O)c4c3C2=O)NC(=O)/C(C)=C\C=C\[C@H](C)[C@H](O)[C@@H](C)[C@@H](O)[C@@H](C)[C@H](OC(C)=O)[C@@H]1C	resazurin	H37Rv	-	-	-	MIC	15 µg/mL
O=C(Oc1ccc(Cl)cc1C(=O)Nc1ccc(Cl)cc1)c1cnccn1	-	H37Rv 331/88	14 d	-	-	MIC	2 µM
[N-]=[N+]=NCCN1C(=O)C2(OCCO2)c2cc(F)ccc21	-	MC2 6230	-	-	-	MIC99	>360 µM
CN1CCN(CCCCOc2ccc(/C=C3\CC/C(=C\c4ccc(OCCCCN5CCN(C)CC5)cc4)C3=O)cc2)CC1	visual reading	H37Rv	-	-	-	MIC99	12.5–25 µM
CCOC(=O)C1=C(C)NC(C)=C(C(=O)OCC)C1c1cn(-c2ccccc2)nc1-c1ccc(O)cc1	resazurin	H37Rv	-	VERO	-	MIC	1.56 µg/mL
CC(C)COc1ccc(NC(=S)Nc2ccc(-c3ccccn3)cc2)cc1	-	H37Rv	-	-	-	MIC	78 µg/mL
c1ccc(-c2nnc3nn4c(-c5ccccc5)cnnc4c3c2-c2ccccc2)cc1	resazurin	H37Rv	-	-	-	MIC bound	>6.25 µg/mL
C/C(=C\CO)CC/C=C(\C)CCC1CCCCC1	resazurin	H37Rv	-	-	6.25 µg/mL	inhibition	49%
CC(C)=CCc1c(O)c2c(c3c(=O)c4c(O)c5c(cc4oc13)OC(C)(C)C=C5)C=CC(C)(C)O2	-	H37Ra	-	-	-	MIC	25 µg/mL
OC(c1ccccc1)c1c(-c2ccccc2)oc(-c2ccccc2)c1C(O)c1ccccc1	BACTEC	H37Rv	-	-	12.5 µg/mL	inhibition	-26%
CC(C)=CCC/C(C)=C/Cc1c(O)cc2oc3c(O)cccc3c(=O)c2c1O	-	H37Ra	-	-	-	MIC	200 µg/mL
Cc1c(Sc2ccccc2)[n+](=O)c2cc(Cl)ccc2n1[O-]	-	H37Rv	-	-	-	MIC	0.39 µg/mL
CCC1=CCC2C(=O)C3C(C(=O)C2C1)C1(c2ccccc2)OC3(c2ccccc2)c2ccccc21	BACTEC	H37Rv	-	-	-	MIC bound	>12.5 µg/mL
C/C(=C\COC1CCCCO1)CC/C=C(\C)CSc1ccccc1	resazurin	H37Rv	-	-	6.25 µg/mL	inhibition	20%
N#CC(N=Nc1cccc2ccccc12)C(N)=O	BACTEC	H37Rv	-	-	-	MIC bound	>12.5 µg/mL
Cc1c(Cl)[n+](=O)c2ccc(Cl)cc2n1[O-]	-	H37Rv	-	-	6.25 µg/mL	inhibition	99%
[N-]=[N+]=NCCCCCCCCN1C(=O)C(=O)c2cc(Cl)ccc21	-	MC2 6230	-	-	-	MIC99	158 µM
CCCCCCCCCCCCCCCCNCc1cccnc1	-	Clinical isolates MDR	-	-	-	MIC	3.12 µg/mL
COc1c(O)cc2oc3cc(O)c(CC=C(C)C)c(O)c3c(=O)c2c1CCC(C)(C)O	-	H37Ra	-	-	-	MIC	25 µg/mL
CCOc1ccccc1CNCCNCc1ccccc1Cl	-	-	-	-	-	MIC	50 µM
CC(C)[C@H]1C(=O)OC[C@@H](NC(=O)c2cnc3ccccc3n2)C(=O)N[C@@H](C)C(=O)N(C)[C@@H]2CSSC[C@H](C(=O)N1C)N(C)C(=O)[C@H](C)NC(=O)[C@H](NC(=O)c1cnc3ccccc3n1)COC(=O)[C@H](C(C)C)N(C)C2=O	-	INH-r	-	-	-	MIC	0.8 µg/mL
C=CCSc1ncnc2[nH]ncc12	-	H37Rv	-	-	-	MIC	260 µg/mL
Fc1ccccc1CNCCNCc1ccco1	-	-	-	-	-	MIC	50 µM
[N-]=[N+]=NCCCCN1C(=O)C2(OCCO2)c2cc(F)ccc21	-	MC2 6230	-	-	-	MIC99	>327 µM
Clc1ccc(-c2nnc(/N=C\c3ccco3)s2)cc1	resazurin	H37Rv	-	-	-	MIC	3.125 µg/mL
Cc1c(C(=O)NCCO)[n+](=O)c2cc(Cl)ccc2n1[O-]	BACTEC	H37Rv	-	-	-	MIC	≥12.5 µg/mL
CCOC(=O)C1=C(C)NC(C)=C(C(=O)OCC)C1c1cn(-c2ccccc2)nc1-c1ccc(Br)cc1	resazurin	H37Rv	-	VERO	-	MIC	0.02 µg/mL
c1ccc2c(c1)N=NN1CCCOC21	BACTEC	H37Rv	-	-	12.5 µg/mL	inhibition	14%
O=c1[nH]c(=O)n(CCO)cc1[N+](=O)[O-]	-	-	-	-	6.25 µg/mL	inhibition	<90%
N#Cc1c(Cl)nsc1-c1ccc([N+](=O)[O-])cc1	BACTEC	H37Rv	-	-	12.5 µg/mL	inhibition	79%
CN(CCCC#CC(C)(C)C)c1cccc2c1CCC(=O)N2	-	H37Rv	-	-	-	MIC	0.78 µg/mL
C=C[C@@](C)(O)CC/C=C(/C)CCC=C(C)C	resazurin	H37Rv	-	-	6.25 µg/mL	inhibition	11%
CCOC(=O)CN/N=C(\N)CSS(=O)(=O)O	BACTEC	H37Rv	-	-	12.5 µg/mL	inhibition	43%
Fc1ccccc1CCNCCNCCC1=CCCCC1	-	-	-	-	-	MIC	25 µM
Cc1cn(-c2ccc([N+](=O)[O-])cc2[N+](=O)[O-])c(=O)[nH]c1=O	-	-	-	-	6.25 µg/mL	inhibition	<90%
CCc1cc(C(N)=S)ccn1	-	MC2 6230	-	-	-	MIC99	90.36 µM
O=C1Cn2c(c3ccccc3nc2=O)N1	BACTEC	H37Rv	-	-	-	MIC bound	>12.5 µg/mL
O=C(Oc1cc(Cl)ccc1C(=O)Nc1ccc(Br)cc1)c1cnccn1	-	H37Rv 331/88	14 d	-	-	MIC	2 µM
Cc1cnc(C(=O)O)c(C(=O)O)n1	BACTEC	H37Rv	-	-	-	MIC bound	>12.5 µg/mL
[N-]=[N+]=NCCN1C(=O)C2(OCCO2)c2ccccc21	-	MC2 6230	-	-	-	MIC99	>385 µM
CCn1c(CC(C)C(=O)c2c(C)n(C)n(-c3ccccc3)c2=O)nc2ccccc2c1=O	BACTEC	H37Rv	-	-	12.5 µg/mL	inhibition	1%
CCCCCCCCCCCCNCc1ccccn1	-	Sensitive strains	-	-	-	MIC	1.56 µg/mL
C=C[C@](C)(O)CC[C@@H]1[C@@]2(C)CCCC(C)(C)[C@@H]2CC[C@@]1(C)O	resazurin	H37Rv	-	-	-	MIC	6 µg/mL
CCCCCCCCCCCCNC(CC(=O)OCC)c1ccc([N+](=O)[O-])cc1	-	H37Ra	-	-	-	MIC	>25 µg/mL
Cc1cccc(C(N)=Nc2nc(-c3ccccn3)cc3ccccc23)c1	-	J-2983	-	-	-	MIC	0.5 µg/mL
CCCCCCCCC=CCCCCCCCCNCc1ccncc1	-	H37Ra	-	-	-	MIC	<25 µg/mL
NC(N)=NCCC[C@H](NC(=O)OCCCCCCn1ccc(N)nc1=O)C(=O)O	resazurin	H37Rv	-	-	-	MIC bound	>6.25 µg/mL
CC(O)Cn1cc([N+](=O)[O-])c(=O)[nH]c1=O	-	-	-	-	6.25 µg/mL	inhibition	<90%
CCCCC(CC)CN1CN(CC(CC)CCCC)CC(C)(NCCNC[C@@H](C)O)C1	-	-	-	-	-	MIC	25 µM
CC1NCc2cc(-c3ccc4c(=O)c(C(=O)O)cn(C5CC5)c4c3OC(F)F)ccc21	-	M-4	-	-	-	MIC	0.0625 µg/mL
NNC(=O)c1ccncc1	-	H37Rv 331/88	14 d	-	-	MIC	0.5–1 µM
CC1(C)NC(C(=O)O)Cc2c1[nH]c1ccccc21	resazurin	H37Rv	-	-	6.25 µg/mL	inhibition	-3%
COC(=O)C1=C(C)NC(C)=C(C(=O)OC)C1c1cn(-c2ccccc2)nc1-c1ccc(OC)cc1	resazurin	H37Rv	-	-	6.25 µg/mL	inhibition	5%
COc1ccccc1NC(=O)CC(=O)N1N=C(C)C(N=Nc2ccc(I)cc2)C1=O	BACTEC	H37Rv	-	-	-	MIC bound	>12.8 µg/mL
Cc1ccc2c(c1)[n+](=O)c(S(=O)(=O)c1ccccc1)c(C)n2[O-]	-	H37Rv	-	-	-	MIC	>6.25 µg/mL
COC(=O)C1=C(C)NC(C)=C(C(=O)OC)C1c1cn(-c2ccccc2)nc1-c1ccc(F)cc1	resazurin	H37Rv	-	-	6.25 µg/mL	inhibition	71%
CN1CCN(c2n[nH]c(=O)c3c2nnn3C2CCCCC2)CC1	resazurin	H37Rv	-	-	-	MIC bound	>6.25 µg/mL
Cc1c(S(=O)(=O)c2ccccc2)[n+](=O)c2cc(F)c(F)cc2n1[O-]	-	H37Rv	-	-	-	MIC	>6.25 µg/mL

Repeating the first 5 entries:

{"SMILES": "COc1cc(/C=C2\\CC/C(=C\\c3ccc(OCCCCN4CCC(C)CC4)c(OC)c3)C2=O)ccc1OCCCCN1CCC(C)CC1", "method": "visual reading", "strain": "H37Rv", "measure": "MIC99", "result": "12.5 µM"}
{"SMILES": "CN(CC#CC#CC(C)(C)C)c1cccc2c1CCC(=O)N2", "strain": "H37Rv", "measure": "MIC", "result": ">6.25 µg/mL"}
{"SMILES": "COc1ccccc1CCNCCNCCc1ccccc1Cl", "measure": "MIC", "result": "50 µM"}
{"SMILES": "CC1=N/C(=C\\c2ccco2)C(=O)O1", "method": "BACTEC", "strain": "H37Rv", "dose": "12.5 µg/mL", "measure": "inhibition", "result": "-19%"}
{"SMILES": "Cc1c(S(=O)(=O)c2ccccc2)[n+](=O)c2ccc(Cl)cc2n1[O-]", "strain": "H37Rv", "measure": "MIC", "result": "6.25 µg/mL"}